Tests used:
[1] = target: T1, YU2 gp120 (Human immunodeficiency virus type 1 group M subtype B, UniProt P35961); parameters: species or system HIV-1; details: 10Å shell from Cα of residue 23; ternary complex with 17b
[2] = target: HXBc2 gp120 (Human immunodeficiency virus type 1 group M subtype B, UniProt P04578); experiment: Surface-plasmon resonance binding, HXBc2 gp120; parameters: species or system HIV-1; details: HXBc2; vs biphenyl counterpart
[3] = target: T1, YU2 gp120; experiment: Surface-plasmon resonance binding, YU2 gp120; parameters: species or system HIV-1; details: YU2; vs biphenyl counterpart
[4] = system: HIV-1 gp120; details: vs biphenyl counterpart (CD4M33, CD4M47)

| Compound | normalized linear difference distance of gp120 vs CD4-bound gp120 [1] | off-rate, fold difference between phenyl- and biphenyl-containing ligands [2] | off-rate, fold difference between phenyl- and biphenyl-containing ligands [3] | on-rate compared with biphenyl counterpart [4] |
| --- | --- | --- | --- | --- |
| CC(C)C[C@@H]1NC(=O)CNC(=O)[C@H](CC(C)C)NC(=O)[C@H](CO)NC(=O)[C@H](CCCCN)NC(=O)[C@@H]2CSSC[C@@H](C(=O)N[C@H](C(N)=O)C(C)C)NC(=O)[C@H](C)NC(=O)[C@@H]3CSSC[C@H](NC(=O)[C@H](Cc4ccccc4)NC(=O)[C@H](Cc4c[nH]cn4)NC(=O)[C@H](CC(C)C)NC(=O)[C@H](CC(N)=O)NC(=O)CCSSC[C@H](NC(=O)[C@H](CCCCN)NC(=O)CNC(=O)[C@H](CC(C)C)NC1=O)C(=O)N[C@@H](C)C(=O)NCC(=O)N[C@@H](CO)C(=O)N[C@@H](Cc1ccc(-c4ccccc4)cc1)C(=O)N3)C(=O)N[C@@H](CCC(N)=O)C(=O)N[C@@H](CC(C)C)C(=O)N[C@@H](CCCNC(=N)N)C(=O)N2 [CD4M33] | 0.22-0.24 Å | – | – | – |
| CC(C)C[C@@H]1NC(=O)CNC(=O)[C@H](CC(C)C)NC(=O)[C@H](CO)NC(=O)[C@H](CCCCN)NC(=O)[C@@H]2CSSC[C@@H](C(=O)N[C@H](C(N)=O)C(C)C)NC(=O)[C@H](C)NC(=O)[C@@H]3CSSC[C@H](NC(=O)[C@H](Cc4ccccc4)NC(=O)[C@H](Cc4c[nH]cn4)NC(=O)[C@H](CC(C)C)NC(=O)[C@H](CC(N)=O)NC(=O)CCSSC[C@H](NC(=O)[C@H](CCCNC(=N)N)NC(=O)CNC(=O)[C@H](CC(C)C)NC1=O)C(=O)N[C@@H](C)C(=O)N1CCC[C@@H]1C(=O)N[C@@H]([C@@H](C)O)C(=O)N[C@@H](Cc1ccccc1)C(=O)N3)C(=O)N[C@@H](CCC(N)=O)C(=O)N[C@@H](CC(C)C)C(=O)N[C@@H](CCCNC(=N)N)C(=O)N2 [[Phe^23]M47] | 0.16-0.20 Å | ≤ 1.1 fold | ≤ 1.7 fold | about half as fast |
